Measured values from PubChem BioAssay AID624273 (Broad Institute, 2012).
Only a part is listed here, and it is no random draw. Entries with a potency or affinity are not part of this list. Calls of active or inactive are those of the source. No rule for the calls is given here.

By UniProt entry, the sequences of proteins in these tests, tags left out. Where a name states a change or a piece, a line headed by the entry shows the natural chain unless it says otherwise.
UniProt P9WQ59: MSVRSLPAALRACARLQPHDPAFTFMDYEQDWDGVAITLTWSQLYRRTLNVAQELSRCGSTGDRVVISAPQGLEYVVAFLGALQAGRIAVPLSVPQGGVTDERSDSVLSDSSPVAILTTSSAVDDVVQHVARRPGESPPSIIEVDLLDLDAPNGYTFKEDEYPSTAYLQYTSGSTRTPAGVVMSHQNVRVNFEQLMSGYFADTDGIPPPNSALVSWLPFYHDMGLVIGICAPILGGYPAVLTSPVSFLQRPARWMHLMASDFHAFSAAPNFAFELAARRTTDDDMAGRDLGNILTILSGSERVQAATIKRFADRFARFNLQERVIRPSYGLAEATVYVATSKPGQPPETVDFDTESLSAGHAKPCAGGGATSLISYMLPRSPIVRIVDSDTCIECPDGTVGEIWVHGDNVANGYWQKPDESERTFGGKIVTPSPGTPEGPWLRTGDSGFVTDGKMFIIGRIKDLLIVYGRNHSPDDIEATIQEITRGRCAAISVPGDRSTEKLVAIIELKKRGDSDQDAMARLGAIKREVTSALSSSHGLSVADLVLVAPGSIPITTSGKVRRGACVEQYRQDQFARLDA

Molecular target: Long-chain-fatty-acid--AMP ligase FadD28 (Mycobacterium tuberculosis (strain ATCC 25618 / H37Rv)) (UniProt P9WQ59)
Assay: inhibitors of FadD28 bisubstrate probe binding, dose response, biochemical, fluorescence polarization, cherry-pick (AID 624273)
Conditions: at 50 µM (top of the series)

| SMILES | activity change, negative = inhibition |
| --- | --- |
| Nc1cccc2ccc([As](=O)(O)O)cc12 | inactive: -12.9% |
| CCN(/C(=N/P(=O)(N1CCOCC1)N1CCOCC1)N1CCOCC1)c1ccc(OC)cc1 | inactive: -7.66% |
